Compound potency records, mixed from different reports. Data source: NIAID ChemDB in PubChem.

Shared fields: tests in culture

A number after MIC or MFC names an inhibition level or a share of isolates. ECn: concentration that inhibits the pathogen or its effect by n%. a–b is a range or a potency band. Lines come from different laboratories, so protocols vary. Blank or dashed fields: not listed here. Percent inhibition refers to the dose given; in toxicity tests it is the harm to the cells. Zone: diameter of growth inhibition.

compound	cell line	dose	strain or isolate	organism	endpoint	read by	value
CCC(O)CN(NC(=O)Nc1cc(C(F)(F)F)cc(C(F)(F)F)c1)C(=O)Nc1cc(C(F)(F)F)cc(C(F)(F)F)c1	-	-	ES142	Escherichia coli	MIC	-	>300 µM
Cc1ccc2c(c1)C(C=NNC(=O)N1c3ccccc3C=Cc3ccccc31)C(c1ccccc1)=N2	-	750 µg/mL	MTCC-1782	Aspergillus terreus	zone	agar diffusion	8 mm
O=C(Nc1cc(C(F)(F)F)cc(C(F)(F)F)c1)NS(=O)(=O)c1ccc(OC(F)(F)F)cc1	-	-	ES142	Escherichia coli	MIC	-	>200 µM
CC(C)(O)c1cn(-c2ccc3ccccc3c2)nn1	-	2048 µg/mL	URM 4384	Candida albicans	inhibition	broth dilution	0%
O=C(c1ccccc1)N(CCc1ccccc1)C[C@H](O)CN(CC1CCCC1)S(=O)(=O)c1nc2ccccc2[nH]1	CEM	-	IIIB	HIV-1	EC90	p24	1 µM
Nc1nc2c(ncn2COC(CO)CO)c(=O)[nH]1	-	-	VR6200 (ganciclovir-susceptible)	Human cytomegalovirus	EC90	plaque count	4.1 µM
CC(C)[C@@H](N)C(=O)OCN(C)C(=O)c1ccc(-n2c(=O)c3c(n4ncc(CC5CC5)c24)CN(C(=O)c2ccc(Br)c(C(F)(F)F)c2)C(C)C3)cc1	HepG2.117	-	-	Hepatitis B virus	EC50	luminescence	0.5–5 µM
CN[C@H]1CC[C@@H](c2ccc(Cl)c(Cl)c2)c2ccccc21	-	-	163.99	Cryptococcus neoformans	MIC90	broth dilution	4 µg/mL
CCC(CC)[C@H](NC(C)=O)[C@@H]1C[C@@H](C(=O)O)C[C@H]1N=C(N)N	MDCK	-	H1N1 A/PR/8/34	Influenza A virus	EC50	-	1 µM
N#Cc1cc([N+](=O)[O-])ccc1Oc1ccc(Cl)c(Cl)c1	VERO	0.097 µg/mL	TYPE A21	Coxsackie virus	inhibition	-	71%
O=[N+]([O-])c1cc([N+](=O)[O-])c2ccc(S(=O)(=O)O)cc2c1O	Human amnion AV3 cells	50 µg/mL	-	Herpes simplex virus	inhibition	cytopathic effect	0%
CCC(O)CN(NC(=O)Nc1cc(C(F)(F)F)cc(C(F)(F)F)c1)C(=O)Nc1ccc(C(F)(F)F)cc1	-	-	ES142	Escherichia coli	MIC	-	>300 µM
O=C1C(c2[nH]c3ccc(S(=O)(=O)O)cc3c2O)=Nc2ccc(S(=O)(=O)O)cc21	Human amnion AV3 cells	50 µg/mL	TYPE 3	Adenovirus	inhibition	cytopathic effect	0%
CCC(C)CC(C)CCCCCCCCC(=O)N[C@H]1C[C@@H](O)[C@H](NCCN)NC(=O)[C@@H]2[C@@H](O)CCN2C(=O)[C@H]([C@H](O)CCN)NC(=O)[C@H]([C@H](O)[C@@H](O)c2ccc(O)cc2)NC(=O)[C@@H]2C[C@@H](O)CN2C(=O)[C@H]([C@@H](C)O)NC1=O	-	-	B 36203	Cryptococcus neoformans	MIC	broth dilution	8 µg/mL
CCCCCCCCCCCCOC(=O)[C@]1(O)C[C@@H](O)[C@@H](O)[C@H](OC(=O)/C=C/c2ccc(O)c(O)c2)C1	-	-	CB 108.08	Aspergillus ochraceus	MIC50	absorbance	1900 µM
Nc1ncnc2c1ncn2[C@@H]1C=C[C@@H](O)[C@H]1O	-	-	TYPE 1	Reovirus	MIC	-	0.7 µg/mL
CCCC(CCC)C(NC(C)=O)C1C(N=C(N)N)CC(C(=O)O)C1O	MDCK	-	Harbin/07/94	Influenza B virus	EC50	-	0.06 µM
Cn1cc(C(=O)NCc2ccc(Cl)cc2)c(=O)c2cc(CN3CCOCC3)ccc21	HFF	1.4 µM	DI varicella isolate	Varicella zoster virus	inhibition	plaque count	90%
O=C(CC(=O)Nc1cc(C(F)(F)F)cc(C(F)(F)F)c1)Nc1cc(C(F)(F)F)cc(C(F)(F)F)c1	-	-	ES142	Escherichia coli	MIC	-	>300 µM
O=c1[nH]c(=O)n([C@H]2C[C@H](O)[C@@H](CO)O2)cc1I	-	-	PRIC	Herpes simplex virus 1	MIC	-	1.1 µg/mL
NC(=NC1CCCC1)c1ccc(-c2ccc(-c3ccc(C(N)=NC4CCCC4)cc3)o2)cc1	-	-	Isolate 17 (strain 12-99)	Candida albicans	MFC	-	25 µg/mL
CCCc1cc(=O)oc2cc(OS(=O)(=O)c3ccc(C)cc3)cc(OS(=O)(=O)c3ccc(C)cc3)c12	CV-1	-	NS2	Measles virus	EC50	cytopathic effect	1 µg/mL
CC(C)(C)CS(=O)(=O)N(CC1CCCC1)C[C@@H](O)CN(CCc1ccccc1)C(=O)c1ccccc1	CEM	-	IIIB	HIV-1	EC90	p24	1 µM
C[C@@H](c1nc(-c2ccc(C#N)cc2)cs1)[C@](O)(Cn1cncn1)c1cc(F)ccc1F	-	-	VG IIc	Cryptococcus gattii	MIC50	broth dilution	0.25 µg/mL
COc1ccc(S(=O)(=O)N(CC(C)C)C[C@@H](O)CCN(CC2CCCC2)S(=O)(=O)c2cccnc2)cc1	CEM	-	IIIB	HIV-1	EC90	p24	1 µM
CC(C)N=C(N)/N=C(\N)NOCCCOc1cc(Cl)c(Cl)cc1Cl	-	-	2242	Mycobacterium avium complex	MIC	-	32 µg/mL
CCc1ccc(C(=O)Nc2cn(C(C)=O)c3ccccc23)cc1	Human foreskin fibroblasts	-	-	Toxoplasma gondii	MIC90	-	>0.125 µM
Oc1ccccc1N=Cc1ccc2c(c1)OCO2	-	-	5396	Cryptococcus neoformans	MIC99	-	5.7 µg/mL
O=S(=O)([O-])c1ccc2c(O)cc(S(=O)(=O)[O-])cc2c1	Human amnion AV3 cells	10 µg/mL	-	Herpes simplex virus	inhibition	cytopathic effect	0%
Cc1ccc2c(c1)C(C1SCC(=O)N1NC(=O)N1c3ccccc3C=Cc3ccccc31)C(c1ccccc1)=N2	-	1000 µg/mL	MTCC-1782	Aspergillus terreus	zone	agar diffusion	15 mm
CCc1ccc(S(=O)(=O)NC(=O)c2ccccc2O)cc1	Human foreskin fibroblasts	-	-	Toxoplasma gondii	MIC50	-	>0.25 µM
O=C(NN=CC1C(c2ccccc2)=Nc2ccc(Cl)cc21)N1c2ccccc2C=Cc2ccccc21	-	1000 µg/mL	MTCC-3567	Aspergillus oryzae	zone	agar diffusion	13 mm
CC(C)Oc1ccc2cc(C(=O)NC(=O)c3ccccc3O)ccc2c1	Human foreskin fibroblasts	-	-	Toxoplasma gondii	MIC90	-	>0.25 µM
OC[C@H]1O[C@@H](n2c(Br)nc3cc(Cl)c(Cl)cc32)[C@H](O)[C@@H]1O	-	-	TOWNE	Human cytomegalovirus	EC95	virus yield	0.18 µM
O=[N+]([O-])c1ccc(C=Nc2ccccc2O)cc1	-	-	ATCC 24067	Cryptococcus neoformans	MIC99	-	8 µg/mL
CC(C)c1nc2ccccc2c(=O)n1NC(=O)Nc1cc(C(F)(F)F)cc(C(F)(F)F)c1	-	-	KL21	Klebsiella pneumoniae	MIC	-	>300 µM
COc1cc(O)c2c(=O)cc(-c3ccccc3)oc2c1CC=C(C)C	LLC-MK2	12 µM	Type 2/Mexican isolate	Dengue virus	inhibition	plaque count	53.9%
C[C@@H]1Cc2c(n3ncc(Cc4ccccc4)c3n(-c3ccc(-c4nn[nH]n4)cc3)c2=O)CN1C(=O)c1ccc(Br)c(C(F)(F)F)c1	HepG2.117	-	-	Hepatitis B virus	EC50	luminescence	0.5–5 µM
CO/N=C1\CN(c2nc3c(cc2F)c(=O)c(C(=O)O)cn3C2CC2)CC1CN	-	-	37 isolates (minocycline-resistant)	Streptococcus pneumoniae	MIC50	-	0.031 µg/mL
O=C(NC(=O)c1ccccc1O)c1ccc([N+](=O)[O-])cc1	Human foreskin fibroblasts	-	-	Toxoplasma gondii	MIC50	-	>1 µM
Cc1ccc(-n2cc(C(C)(C)O)nn2)cc1C	-	2048 µg/mL	URM 4970	Candida parapsilosis	inhibition	broth dilution	0%
Nc1ncnc2c1ncn2[C@@H]1CC[C@@H](O)[C@H]1O	-	-	-	Sindbis virus	MIC	-	>100 µg/mL
CCC(CC)[C@H](NC(C)=O)[C@@H]1[C@H](O)[C@@H](C(=O)O)C[C@H]1N=C(N)N	MDCK	-	B/HONG KONG/5/72	Influenza B virus	EC50	-	2.2 µM
CCCc1cc(=O)oc2cc(OS(=O)(=O)c3ccc(C)cc3)cc(O)c12	CV-1	-	Chicago-1	Measles virus	EC50	cytopathic effect	1 µg/mL
COc1ccc(S(=O)(=O)N(CC(O)CN(CCc2ccccc2)S(=O)(=O)c2ccccc2)CC2CCCC2)cc1	CEM	-	IIIB	HIV-1	EC90	p24	1 µM
N#Cc1ccc(C(=O)NC(=O)c2ccccc2O)cc1	Human foreskin fibroblasts	-	-	Toxoplasma gondii	MIC90	-	>10 µM
Oc1ccccc1C=Nc1ccccc1O	-	-	ATCC 24067	Cryptococcus neoformans	MIC99	-	5.7 µg/mL
CSc1nsc(-c2ccccc2)c1C#N	L929	-	Encephalomyocarditis virus	Encephalomyocarditis virus	EC50	plaque count	10 µM
Nc1nccc2c1ncn2[C@@H]1C=C(CO)[C@@H](O)[C@H]1O	-	-	-	Semliki Forest virus	MIC	-	>400 µg/mL
C=CCc1ccc(OC)c(OC)c1	-	-	2624	Candida glabrata	MIC90	turbidity	350 µg/mL
CSc1nsc(-c2cccc3ccccc23)c1C#N	L929	-	Encephalomyocarditis virus	Encephalomyocarditis virus	EC50	plaque count	>4 µM
Cc1n[nH]nc1-c1ccc(-n2c(=O)c3c(n4ncc(CC(C)C)c24)CN(C(=O)c2ccc(Br)c(Cl)c2)[C@@H](C)C3)cc1	HepG2.117	-	-	Hepatitis B virus	EC50	luminescence	0.05–0.5 µM
O=S(=O)(O)c1ccc2cc(O)c(S(=O)(=O)O)cc2c1	Human amnion AV3 cells	5 µg/mL	TYPE 3	Adenovirus	inhibition	cytopathic effect	0%
Cc1cc(CCCOc2c(C)cc(-c3noc(C(F)(F)F)n3)cc2C)on1	OHIO HELA-I	-	Isolate 41	Rhinovirus	EC50	cytopathic effect / visual reading	0.05 µg/mL
O=C(Nc1cccc(C2=NCCN2)c1)Nc1cccc(C(F)(F)F)c1	-	-	ES142	Escherichia coli	MIC	-	150 µM
N#Cc1c(Cl)nsc1Cl	HEP-2	-	TYPE B1	Coxsackie virus	EC50	plaque count	>4 µM
O=C(NC1CC1)c1cc2c(s1)-c1ccccc1N(C(=O)c1ccc(NC(=O)c3ccccc3-c3ccccc3)cc1)CC2	HeLa	-	LONG	Respiratory syncytial virus	EC50	plaque count	0.2 µM
COc1nsc(-c2ccccc2)c1C#N	L929	-	Encephalomyocarditis virus	Encephalomyocarditis virus	EC50	plaque count	>25 µM
CN(C)c1ccc(C(=O)NC(=O)c2ccccc2O)cc1	Human foreskin fibroblasts	-	-	Toxoplasma gondii	MIC90	-	0.125–0.62 µM
Cc1ccc(C(=O)Nc2ccc(S(=O)(=O)O)c3cc(S(=O)(=O)O)cc(S(=O)(=O)O)c23)cc1NC(=O)c1cccc(NC(=O)Nc2cccc(C(=O)Nc3cc(C(=O)Nc4ccc(S(=O)(=O)O)c5cc(S(=O)(=O)O)cc(S(=O)(=O)O)c45)ccc3C)c2)c1	Human conjunctiva cells	5 µg/mL	-	Herpes simplex virus	inhibition	cytopathic effect	10%
CCOC(=O)c1cnc(NCCCCNc2ccnc3cc(Cl)ccc23)nc1C	-	-	27JF	Cryptococcus neoformans	MIC99	-	16 µg/mL
O=C(CCc1ccccc1)NC(=O)c1ccccc1O	Human foreskin fibroblasts	-	-	Toxoplasma gondii	MIC50	-	>0.25 µM
Nc1nccc2c1ncn2[C@@H]1CC[C@@H](O)[C@H]1O	-	-	TYPE 1	Reovirus	MIC	-	0.07 µg/mL
CCC(CC)[C@H](NC(C)=O)[C@@H]1[C@H](O)[C@@H](C(=O)O)C[C@H]1N=C(N)N	MDCK	-	HONG KONG/5/72	Influenza B virus	EC50	-	2.2 µM
CC(C)(O)c1cn(-c2cccc3ccccc23)nn1	-	2048 µg/mL	ATCC 22019	Candida parapsilosis	inhibition	broth dilution	0%
CCCc1cc(=O)oc2cc(OC(=O)CC)cc(O)c12	CV-1	-	Chicago-1	Measles virus	EC90	virus yield	40 µg/mL
CC(N)C12CC3CC(CC(C3)C1)C2	VERO	-	Influenza A/Shanghai/16/89 (H3N2)	Influenza A virus	EC50	ELISA	0.03 µg/mL
Nc1ccc2cc([N+](=O)[O-])cc(S(=O)(=O)[O-])c2c1	Human embryonic lung cells	5 µg/mL	-	Rhinovirus	inhibition	cytopathic effect	30%
CO[C@H]1/C=C/O[C@@]2(C)Oc3c(C)c(O)c4c(O)c(c5c(c4c3C2=O)NC2(CCN(CC(C)C)CC2)N=5)=NC(=O)/C(C)=C\C=C\[C@H](C)[C@H](O)[C@@H](C)[C@@H](O)[C@@H](C)[C@H](OC(C)=O)[C@@H]1C	-	-	SKV	Mycobacterium avium intracellulare	MIC	-	0.062 µg/mL
Nc1nccc2c1ncn2[C@@H]1C=C[C@@H](O)[C@H]1O	-	-	-	Sindbis virus	MIC	-	>400 µg/mL
Cc1cc(-c2ccc(N=Nc3ccc4c(S(=O)(=O)O)cc(S(=O)(=O)O)c(N)c4c3O)c(C)c2)ccc1N=Nc1ccc2c(S(=O)(=O)O)cc(S(=O)(=O)O)c(N)c2c1O	Human amnion AV3 cells	50 µg/mL	-	Rhinovirus	inhibition	cytopathic effect	0%
CN[C@H]1C[C@@H](n2cnc3c(N)ncnc32)[C@H](O)[C@@H]1O	HFF	-	-	Epstein-Barr virus	EC50	-	24.9 µg/mL
CCc1nc2ccccc2c(=O)n1NC(=O)Nc1cc(C(F)(F)F)cc(C(F)(F)F)c1	-	-	KL21	Klebsiella pneumoniae	MIC	-	>300 µM
C=C/C(C)=C/[C@@]1(C)SC(=O)C(C)=C1O	-	-	UB1005 (TLM-S)	Escherichia coli	MIC	-	150 µM
C[C@@H]1Cc2c(n3ncc(CC4CC4)c3n(-c3ccc(-c4nc(=O)on4C)cc3)c2=O)CN1C(=O)c1ccc(Br)c(C(F)(F)F)c1	HepG2.117	-	-	Hepatitis B virus	EC50	luminescence	≤0.05 µM
CCCc1cc(=O)oc2c3c(c4c(c12)OC(C)(C)[C@H](O)[C@@H]4O)O[C@H](C)[C@@H](C)[C@@H]3O	CV-1	-	NS2	Measles virus	EC50	cytopathic effect	0.5 µg/mL
CC(C)(C)OC(=O)NC(Cc1ccccc1)C(=O)C(=O)C(=O)N(CC1CCCC1)S(=O)(=O)c1ccccc1	CEM	-	IIIB	HIV-1	EC90	p24	1 µM